# Percent effect of library compounds

Data taken from ChEMBL document CHEMBL3988442, “University of Dundee, Small-Polar-MMV Screening Library” (2021).

The filed quantity is “Percent Effect” (%).
The controls that fix the scale are not given in the record; negative values are as filed.
This is part of a subset picked to be rich in strong results.

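Phenotypic screen: M. tuberculosis growth, glucose 7H9 medium, 3 days; the read-out is not stated. Tested at 500 µM. The record gives no direction; compounds that gave an IC50 in retests scored well above the rest, so higher reads as more growth inhibition. About 18,000 compounds were tested under these conditions; 7.9% (about 1,400) showed 50% or more at least once.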

compound | percent effect
C1CCC(NC2CCNCC2)C1 | -1.737%
Nc1cc(-c2cccnc2)nn1CCO | 7.549%
COCc1nn(CCC2CCCC2)c(=O)o1 | 72.38%
CC1COCCN1S(=O)(=O)N1CCCCC1 (stereo not given) | 1.569%
CN(C)C(CCN)c1ccccc1 (stereo not given) | 8.636%
CC(Nc1cccc(OC(F)(F)F)c1)C(=O)NC(N)=O (stereo not given) | 52.78%
Cc1c(CN2CCSCC2)cccc1NS(C)(=O)=O | 70.48%
O=C(CCN1CCCCC1)c1ccc2c(c1)OCO2 | 69.26%
c1ccc(CN2CCCN(CC3CCOC3)CC2)nc1 (stereo not given) | 6.804%
CCC(C)(C)NC(=O)c1nn(-c2ccccc2)nc1C | 53.64%
COc1cc(OC)cc(N2CCC(N)CC2)c1 | 37.61%
COc1ccc(F)c(F)c1CN1CCCC(O)(CO)C1 (stereo not given) | 25.15%
NC(CCO)c1ccc(F)cc1 (stereo not given) | 8.893%
CCn1cc(CN2CCN(C3CCOCC3)CC2)cn1 | -5.326%
CNC(=O)CN1CCC(Oc2ccccc2)C1 (stereo not given) | 47.39%
CN(CCNc1ccc2cc[nH]c2n1)S(C)(=O)=O | -11.09%
CCN(C(=O)NCCc1ccco1)C(C)CS(C)(=O)=O (stereo not given) | -0.3282%
CN1C(=O)C[C@H](CN)[C@H]1c1cnn(C)c1 | 9.961%
COC(=O)N1CCN(C(=O)c2ccc(Br)cc2O)CC1 | 36.68%
CCOc1cccc(CS(=O)(=O)Cc2ccnn2C)n1 | 12.98%
CC1CC(=O)N(C)c2ccccc2N1 (stereo not given) | 2.851%
NCCOCc1ccc(Cl)cc1 | 40.34%
CCC[C@H]1CN(C(=O)c2nn(C)c(C)c2Cl)C[C@@H]1N | 21%
O=C(NCc1ccc2c(c1)OCO2)NCC(F)(F)F | 43.53%
Cc1cc(F)ccc1NC(=O)NCCCn1cnnc1 | 17.7%
CN(C)CC(=O)Nc1ccc(Br)cn1 | 30.01%
CN(Cc1nnc2n1CCC2)C(=O)C1CCCCC1 | 4.45%
COc1cc(F)ccc1NC(=O)c1ccncc1 | 35.54%
Cc1ccccc1C(=O)N1CCN(S(C)(=O)=O)[C@@H](C)C1 | 4.337%
COCCCNC(=O)c1ccc(NC(C)=O)cc1 | 4.07%
CCOc1cc(CN2CCC(N)CC2)ccc1O | -1.77%
CC(C(=O)NCc1cccs1)S(=O)(=O)C1CCCC1 (stereo not given) | 54.76%
CC(C)c1csc(C(=O)N2CCOc3ncccc32)n1 | 66.94%
O=C(Cn1cncn1)Nc1cccc(F)c1 | 16.17%
NCCNS(=O)(=O)c1ccc(-c2ccccc2)cc1 | 82.09%
CN(CCC1CCCN1C)CC(=O)N(C)C (stereo not given) | -0.9604%
COc1ccnc(NCc2ccc(CO)c(F)c2)n1 | 50.68%
Cc1ccc(C(=O)N2CCC3(CCCCO3)CC2)cn1 | 54.3%
Cn1cc(NC(=O)c2ccc(Br)s2)cc1C(N)=O | 99.25%
CCC(NC(=O)c1nc(C)c[nH]1)c1cccc(C)n1 (stereo not given) | 12.94%
CCC(N)C(=O)N1CCN(c2ccc(F)cc2Cl)CC1 (stereo not given) | 78.96%
CO[C@@H]1COCC[C@H]1NC(=O)c1ccncc1Cl | 8.262%
COc1ccccc1C(N)c1nccn1C (stereo not given) | 30.54%
CC1Cc2ccccc2N1S(C)(=O)=O (stereo not given) | 32.82%
NC(=O)COc1cccc(CN2CCC(F)CC2)c1 | 50.09%
O=C(c1cccs1)N1CCCN(Cc2cscn2)CC1 | 41.69%
CC(O)CCN(C)c1nccnc1C#N (stereo not given) | -0.03189%
CSc1ccc(CN)cc1 | 16.02%
NC1CCCN(c2cccc(F)c2)C1 (stereo not given) | 25.25%
O=C1OCCN1C1CCNCC1 | -5.226%
O=S1(=O)CCCN(Cc2ccc(Br)c(F)c2)CC1 | 73.18%
CC(C)(C)OC(=O)CCOCCO | 11.07%
CC(O)CN1CCN(Cc2ccccc2C#N)CC1 (stereo not given) | 8.26%
CCC1CCC(=O)N1 (stereo not given) | -3.817%
CCN(C)C(C)(C)C(=O)Nc1ncccc1O | -0.8706%
Cc1ccsc1C(=O)N1CCOc2ccncc21 | 25.85%
COc1ccc(CSc2nnc(N)[nH]2)c(Cl)c1 | 36.95%
N#CCCN1C(=O)c2cc(Cl)c(Cl)cc2C1=O | -3.507%
c1ccc2[nH]c(N3CCNCC3)nc2c1 | 13.22%
OCCNC1CCCC1 | 66.63%
CO[C@H]1CNCC1NS(=O)(=O)CCOC(C)C (stereo not given in full) | 9.766%
NC(=O)C1CNCCN1C1CC1 (stereo not given) | -2.593%
CNC(=O)NC(=O)CCN1CCCC(C)C1 (stereo not given) | 46.89%
NCC(=O)N1CCC(C(N)=O)CC1 | 2.883%
COc1ccccc1-c1noc(CN)n1 | 6.649%
Fc1ccccc1CN1CCn2ccnc2C1 | -8.789%
COC(=O)c1ccc(CSc2nc(N)cc(O)n2)cc1 | 9.667%
CC[C@@H](O)CN1CCC(NC(=O)C2CCC2)CC1 | 5.56%
COc1ccc2c(c1)C=C(S(N)(=O)=O)CC2 | 9.754%
O=C(c1ccc[nH]1)N(Cc1ccco1)CC1CCCO1 (stereo not given) | 21.56%
CSCC(C)(O)CNc1nnnn1-c1ccccc1 (stereo not given) | 63.03%
CCn1cc(NC(=O)NCCN2CCCC(C)C2)cn1 (stereo not given) | -1.856%
COc1cc(NC(=O)c2cncc(Br)c2)ncn1 | -9.428%
COCc1nc2ccccc2n1CC(=O)NCC(C)C | -2.002%
CC(CN)c1nc(-c2ccccc2)no1 (stereo not given) | 55.6%
COc1ccccc1CNC(=O)CC1CCS(=O)(=O)C1 (stereo not given) | 10.23%
CCCOCC(=O)Nc1ncccc1NC(C)=O | 38.18%
OC(CN1CCOC2(CCCC2)C1)c1ccccc1 (stereo not given) | 62.46%
Cc1noc(C(C)N2CCC(C)CC2)n1 (stereo not given) | -2.154%
CS(=O)(=O)N1CCC(N)C1 (stereo not given) | -14.21%
CCS(=O)(=O)NCCNC(C)(C)c1nccs1 | 5.782%
CN(C1CCCCC1)S(=O)(=O)N1CCNC(=O)C1 | 22.27%
CCN(CC(C)C#N)S(=O)(=O)c1ncn(C)c1Cl (stereo not given) | 2.144%
CC(OCc1ccccc1)C(=O)NCc1c[nH]nn1 (stereo not given) | 12.78%
CN1CCN(c2ccccc2NC(=O)C2CC2)CC1 | 16.53%

Repeated from the top, 8 entries:

compound	percent effect
C1CCC(NC2CCNCC2)C1	-1.737%
Nc1cc(-c2cccnc2)nn1CCO	7.549%
COCc1nn(CCC2CCCC2)c(=O)o1	72.38%
CC1COCCN1S(=O)(=O)N1CCCCC1 (stereo not given)	1.569%
CN(C)C(CCN)c1ccccc1 (stereo not given)	8.636%
CC(Nc1cccc(OC(F)(F)F)c1)C(=O)NC(N)=O (stereo not given)	52.78%
Cc1c(CN2CCSCC2)cccc1NS(C)(=O)=O	70.48%
O=C(CCN1CCCCC1)c1ccc2c(c1)OCO2	69.26%